In PMC10515872 (2023):

Target: PRD-0038 receptor-binding domain (RBD), wildtype (sarbecovirus PRD-0038 (Rhinolophus bat, …, biotin on the Avi tag (BirA)))
Assay: BLI

B1: R. alcyone ACE2-His (monomeric ectodomain) (domain or fragment)
chain: STPEDLAKIFLDNFNSEAENLSHQSSLASWEYNTNISDENIQKMDEAGAKWSDFYETQSKHAKNFSLEEIHNDTVKLQLQILQQSGSPVLSEDKSKRLNSILNAMSTIYSTGKVCRPNNPQECLLLEPGLDNIMGTSKDYNERLWAWEGWRAEVGKQLRPLYEEYVVLKNEMARGYHYEDYGDYWRRDYETEGSPDLEYSRDQLTKDVERIFAEIKPLYEQLHAYVRTKLMDTYPFHISPTGCLPAHLLGDMWGRFWTNLYPLTVPFAQKPNIDVTDAMLNQTWDAKRIFKEAEKFFVSIGLPHMTEGFWNNSMLTDPGDGRKVVCHPTAWDLGKGDFRIKMCTKVTMEDFLTAHHEMGHIQYDMAYASQPYLLRNGANEGFHEAVGEVMSLSVATPKHLKTMGLLSPDFLEDNETEINFLFKQALTIVGTLPFTYMLEKWRWMVFKGEIPKEEWMTKWWEMKRKIVGVVEPVPHDETYCDPASLFHVANDYSFIRYYTRTIFEFQFHEALCRIAKHDGPLHKCDISNSTDAGKKLHQMLSVGKSQPWTSVLKDFVDSKDMDVGPLLRYFEPLYTWLKEQNRNSFVGWNTDWSPYAD
  Kd: 60.7 nM
